Compound potency records, mixed from different reports. Data source: NIAID ChemDB in PubChem.

Common to all: growth or infection tests; agent: Mycobacterium tuberculosis

Blank or dashed fields: not listed here.

structure,cells,measure,read by,mutations,strain,dose,value
Cc1ccc2nc(SCc3ccccc3F)[nH]c2c1,,MIC,,,MY 332/88,,62 µM
CC(C)(C)c1ncc(CCCN=C(N)N)[nH]c1=O,,MIC,,,PAS-R,,0.8 µg/mL
OCCCN1c2ccccc2Sc2ccccc21,,MIC90,resazurin,,H37Rv,,>32 µg/mL
Fc1ccc(NC(=S)N/N=C/c2ccccc2)cc1Cl,,MIC,,,H37Rv,,2 µg/mL
CCOc1ccc(/C=N/NC(=O)c2ccncc2)cc1,,MIC,,,,,0.1 µg/mL
COc1cccc2c1C(=O)c1c(O)c3c(c(O)c1C2=O)C[C@@](O)(/C(C)=N/NC(N)=O)CC3OC1CC(N)C(O)C(C)O1.Cl,,MIC,,,H37Rv,,>12.5 µg/mL
O=C(N/N=C/c1ccc(C23CC4CC(CC(C4)C2)C3)cc1)c1ccncc1,,MIC,luminescence,,H37Rv,,0.1 µg/mL
Fc1ccc(NC(=S)N/N=C/c2cccnc2)cc1Cl,,MIC,,,H37Rv,,1 µg/mL
CC1=CCC(S(=O)(=O)NNC(=O)c2ccncc2)CC1,,MIC,,,,,10 µg/mL
NC[C@H]1O[C@H](O[C@H]2[C@H](O)[C@@H](O[C@H]3O[C@H](CO)[C@@H](O)[C@H](N)[C@H]3O)[C@H](N)C[C@@H]2N)[C@H](O)[C@@H](O)[C@@H]1O,,MIC,,,H37Ra,,2–5 µg/mL
O=C(N/N=C/c1ccc([N+](=O)[O-])s1)c1ccc(Cl)cc1,,EC50,,,H37Rv,,<6.25 µg/mL
O=C(N/N=C/c1ccccc1[N+](=O)[O-])c1ccncc1,,MIC,,,,,0.1 µg/mL
COC(=O)c1sc(=O)n(-c2ccccc2)c1SCc1ccccc1,,inhibition,BACTEC,,H37Rv,12.5 µg/mL,0%
Cc1ccc(CSc2nc3ccc(C)cc3[nH]2)cc1,,MIC,,,MY 332/88,,>32 µM
O=C(N/N=C/c1ccccc1O)c1ccc(F)cc1,,MIC,,,H37Rv,,>6.25 µg/mL
CCC(O)Cn1cc([N+](=O)[O-])nc1[N+](=O)[O-],,MIC,,,H37Rv,,0.48 µg/mL
O=C(N/N=C/c1ccc(C2C3CC4CC(C3)CC2C4)cc1)c1ccncc1,,MIC,luminescence,,H37Rv,,23 µg/mL
CCC1Cn2cc([N+](=O)[O-])nc2O1,,MIC,,,H37Rv,,0.06 µg/mL
Cc1cc(C)n(P2(n3nc(C)cc3C)=NP(n3nc(C)cc3C)(n3nc(C)cc3C)=NP(n3nc(C)cc3C)(n3nc(C)cc3C)=N2)n1,,MIC bound,BACTEC,,H37Rv,,≤128 µg/mL
O=C(CCC(F)(F)F)N1CCC(F)(c2cncc(C(F)(F)F)c2)CC1,THP-1,EC50,fluorescence,,H37Rv,,<0.05 µM
C[C@H]1NCc2cc(-c3ccc4c(=O)c(C(=O)O)cn(C5CC5)c4c3OC(F)F)ccc21,,MIC,,,M-4,,0.0313 µg/mL
Nc1c(Br)cc2snc3c2c1C(=O)c1ccccc1-3,,MIC bound,BACTEC,,H37Rv,,≤12.5 µg/mL
Cc1ccc2nc(SCc3cccc(C#N)c3)[nH]c2c1,,MIC,,,MY 332/88,,>62.5 µM
CC(C)=CC[C@H](O)C1=CC(=O)c2c(O)ccc(O)c2C1=O,,MIC,,,ETA-R,,12.8 µg/mL
Cc1ccc2nc(SCc3cc([N+](=O)[O-])cc([N+](=O)[O-])c3)[nH]c2c1,,MIC,,,MY 332/88,,4 µM
CC(C)OCC1Cn2cc([N+](=O)[O-])nc2O1,,MIC,,,H37Rv,,3.9 µg/mL
CCOc1ccc2ccccc2c1C(=O)N[C@@H]1C(=O)N2[C@@H]1SC(C)(C)[C@@H]2C(=O)O,,MIC,,,Isolate 3,,>16 µg/mL
Cc1nn(C(=O)c2ccncc2)c(C)c1N=Nc1ccc(S(=O)(=O)Nc2ncccn2)cc1,,inhibition,BACTEC,,H37Rv,12.5 µg/mL,4%
C[n+]1cc2c(cn3c4ccccc4ccc23)c2ccccc21,,MIC,resazurin / visual reading,Ethionamide-resistant,H37Rv,,6.2 µg/mL
COc1ccc(C2CCN(C(=O)CCC(F)(F)F)CC2)cn1,THP-1,EC50,fluorescence,,H37Rv,,0.05–0.25 µM
O=C(C[n+]1ccccc1)N/N=C/c1ccc(Cl)cc1.[Cl-],,MIC,,,,,>200 µg/mL
Nc1ncnc2nc(SCC(=O)Nc3cccc(Cl)c3)[nH]c12,,EC50,,,H37Rv,,9 µM
O=C1c2ccccc2C(=O)N1CCC(=O)N1c2ccccc2Sc2ccccc21,,MIC90,resazurin,,H37Rv,,31 µg/mL
O=C(N/N=C/C12CC3CC(C1)CC(c1ccccc1)(C3)C2)c1ccncc1,,MIC,luminescence,,H37Rv,,0.06 µg/mL
CC(O)C1C(=O)N2C(C(=O)O)C=C(SC3CN(C4=NCCC4)C3)C12,THP-1,MIC50,luminescence,,H37Rv,,4.51 µM
O=C(CCC(F)(F)F)N1CCC(c2ccncc2F)CC1,THP-1,EC50,fluorescence,,H37Rv,,0.05–0.25 µM
CC1Cn2cc([N+](=O)[O-])nc2O1,,MIC,,,H37Rv,,1.95 µg/mL
O=C(N/N=C/c1ccco1)c1ccc(F)cc1,,EC50,,,H37Rv,,>6.25 µg/mL
CCC(C)C(N)C(=O)O,,MIC,resazurin / visual reading,,H37Ra,,>100 µg/mL
Cc1ccc2nc(SCc3cccc(F)c3)[nH]c2c1,,MIC,,,MY 332/88,,62 µM
CC(C)(C)c1cc(C(C)(C)C)c2nc(C(=O)NC(Cc3ccc(O)cc3)C(=O)O)oc2c1,,MIC,,,My 331/88,,1000 µM
Nc1cnn2nnnc2c1Cl,,MIC bound,BACTEC,,H37Rv,,>12.5 µg/mL
NNC(=O)c1ccncc1,,MIC,resazurin / absorbance,katG mutant isoniazid resistant,HUG.MI.1020,,1.3 µg/mL
Cn1c(=O)c2nncnc2n(C)c1=O,,MIC bound,BACTEC,,H37Rv,,>12.5 µg/mL
CC1COc2c(N3CCN(C)CC3)c(F)cc3c(=O)c(C(=O)O)cn1c23,,MIC,,,H37Rv,,1 µg/mL
Cc1ccc(Nc2nc3c(s2)C(=O)c2ccccc2C3=O)cc1,,MIC bound,BACTEC,,H37Rv,,≤12.5 µg/mL
O=[N+]([O-])c1cn2c(n1)OC(C(Cl)(Cl)Cl)C2,,MIC,,,H37Rv,,31.2 µg/mL
C[C@@H]1NCc2cc(-c3ccc4c(=O)c(C(=O)O)cn(C5CC5)c4c3OC(F)F)ccc21,,MIC,,,M-4,,0.125 µg/mL
O=C(N/N=C/c1ccc[nH]1)c1ccc(F)cc1,,MIC,,,H37Rv,,>6.25 µg/mL
O=C(COc1cccc2cnccc12)NCc1ccccc1Br,,EC50,,,H37Rv,,0.49 µM
C(=N\NOCC12CC3CC(CC(C3)C1)C2)/c1ccncc1,,MIC,luminescence,,H37Rv,,29.3 µg/mL
Cc1ccc2nc(N/N=C(/c3ccccc3)c3ccccn3)cc(C)c2c1,,inhibition,BACTEC,,H37Rv,12.5 µg/mL,99%
O=[N+]([O-])c1cnc2n1CC(CCl)O2,,MIC,,,H37Rv,,250 µg/mL
Cc1c(-c2nc3cc(C(C)(C)C)cc(C(C)(C)C)c3o2)[nH]c2ccccc12,,MIC,,,My 331/88,,250 µM
C[C@H]1c2ccoc2C[C@H]2[C@H]1[C@@H](O)[C@@H](OC(=O)c1ccccc1)[C@@]1(O)C(C)(C)CCC[C@]21C,,MIC,,,H37Ra,,25 µg/mL
CO[C@H]1CCC[C@H]2C1=C(C(=O)OC(C)OC(=O)OC1CCCCC1)N1C(=O)[C@H]([C@@H](C)O)[C@@H]21,,MIC,resazurin,,H37Rv,,10.6 µM
Cc1[nH]c2ccc(N(C)C)cc2c(=O)c1Cc1c(C)[nH]c2ccc(N(C)C)cc2c1=O,,MIC bound,BACTEC,,H37Rv,,>12.5 µg/mL
Cc1cc(Nc2ccc(Cl)c(Cl)c2)nc(N)n1,,EC50,,,H37Rv,,15 µM
O=[N+]([O-])c1ccc(N=Nc2ccc(NNc3ccc([N+](=O)[O-])cn3)c3cc4ccccc4cc23)nc1,,inhibition,BACTEC,,H37Rv,12.5 µg/mL,23%
C=CCOCC1Cn2cc([N+](=O)[O-])nc2O1,,MIC,,,H37Rv,,3.9 µg/mL
NNC(=O)c1ccncc1,,MIC,,,2219,,>4 µg/mL
CC1(C)S[C@@H]2[C@H](NC(=O)[C@H](N)c3ccc(O)cc3)C(=O)N2[C@H]1C(=O)O,,MIC,,,Isolate 5,,>16 µg/mL
COc1cc(Cl)c(/C=N/NC(=O)c2cccnc2)c(Cl)c1,,MIC,,,,,10 µg/mL
O=C(Cc1cccs1)N[C@@H]1C(=O)N2C(C(=O)[O-])=C(C[n+]3ccccc3)CS[C@H]12,,MIC,,,Isolate 3,,>16 µg/mL
c1ccc(N2c3ccccc3Sc3ccccc32)cc1,,MIC,resazurin,,H37Rv,,4 µg/mL
O=C(CCC(F)(F)F)N1CCC(c2cncc(Cl)c2)CC1,THP-1,EC50,fluorescence,,H37Rv,,<0.05 µM
O=[N+]([O-])c1ccc(N/N=C/c2ccc(O)cc2O)nc1,,inhibition,BACTEC,,H37Rv,12.5 µg/mL,8%
O=C(NN=Cc1ccc([N+](=O)[O-])cc1)c1ccncc1,,MIC,,,,,0.1 µg/mL
CCOc1cc(/C=N/NC(=O)c2ccc(F)cc2)ccc1O,,MIC,,,H37Rv,,>6.25 µg/mL
CC[N+](C)(CC)CCNc1cc2c(c3c(=O)c4ccccc4sc13)CCCC2,,inhibition,BACTEC,,H37Rv,12.5 µg/mL,89%
COc1cc(/C=N/NC(=O)c2cccnc2)ccc1O,,MIC,,,,,1 µg/mL
Fc1ccc(-c2nc3ccc(Cl)cn3c2NCC2CCCO2)cc1,,EC50,,,H37Rv,,13 µM
CC1(C)OCC([C@H]2O[C@@H]3OC(C)(C)O[C@@H]3/C2=N/NC(=O)c2cc3cc(OCc4ccccc4)ccc3[nH]2)O1,,MIC bound,BACTEC,,H37Rv,,≤12.5 µg/mL
C[C@H](O)[C@H]1C(=O)N2C(C(=O)O)=C(S[C@@H]3CN[C@H](C(=O)Nc4cccc(C(=O)O)c4)C3)[C@H](C)[C@H]12,,MIC,resazurin,,H37Rv,,>80 µM
Cn1c(-c2ccc(/C=N/NC(=O)c3ccc(C(=O)N/N=C/c4ccc(-c5c[n+]6ccccc6n5C)cc4)c(O)c3O)cc2)c[n+]2ccccc12.[Br-].[Br-],,MIC bound,BACTEC,,H37Rv,,>12.5 µg/mL
Cc1ccc2nc(SCc3ccc(F)c(F)c3)[nH]c2c1,,MIC,,,MY 332/88,,32 µM
CN(C)c1ccc(/C=C/C/C=N/NC(=O)c2ccc(F)cc2)cc1,,inhibition,,,H37Rv,6.25 µg/mL,23%
C/C=C(\C)c1c(Br)c(O)c(C)c2c1Oc1cc(O)c(Br)c(C)c1C(=O)O2,,MIC,resazurin / visual reading,,H37Ra,,100 µg/mL
FC(F)(F)c1ccccc1NC(=S)SCc1ccc2c(c1)OCO2,,MIC,BACTEC,,H37Rv,,128 µg/mL
Cc1ccc2nc(SCc3ccc([N+](=O)[O-])cc3[N+](=O)[O-])[nH]c2c1,,MIC,,,MY 332/88,,8 µM
CC(C)C1(C)C(=O)N(C)C(=O)N1Br,,inhibition,BACTEC,,H37Rv,12.5 µg/mL,5%
CC1(C)C=Cc2cc3cc(O)c(=O)oc3cc2O1,,MIC,agar / visual reading,,,,16 µg/mL
Cc1ccc2nc(SCc3cccc(C(N)=S)c3)[nH]c2c1,,MIC,,,MY 332/88,,62 µM
Cc1ccc(NC(=O)CCl)cc1Cl,,MIC,BACTEC,,H37Rv,,12.5 µg/mL
CC1(C)C=Cc2cc3ccc(=O)oc3cc2O1,,MIC,agar / visual reading,,,,220 µg/mL
CO[C@H]1CCC[C@H]2C1=C(C(=O)O)N1C(=O)[C@H]([C@@H](C)O)[C@@H]21,,MIC,MTT,,H37Rv,,1.6 µM
CC(C)(C)c1cc(C(C)(C)C)c2nc(C(=O)NCC(=O)O)oc2c1,,MIC,,,My 331/88,,500 µM
O=C(N/N=C/c1ccc(O)cc1)c1cccnc1,,MIC,,,,,10–1000 µg/mL

The last 8 rows once more:

structure | cells | measure | read by | mutations | strain | dose | value
CC(C)C1(C)C(=O)N(C)C(=O)N1Br |  | inhibition | BACTEC |  | H37Rv | 12.5 µg/mL | 5%
CC1(C)C=Cc2cc3cc(O)c(=O)oc3cc2O1 |  | MIC | agar / visual reading |  |  |  | 16 µg/mL
Cc1ccc2nc(SCc3cccc(C(N)=S)c3)[nH]c2c1 |  | MIC |  |  | MY 332/88 |  | 62 µM
Cc1ccc(NC(=O)CCl)cc1Cl |  | MIC | BACTEC |  | H37Rv |  | 12.5 µg/mL
CC1(C)C=Cc2cc3ccc(=O)oc3cc2O1 |  | MIC | agar / visual reading |  |  |  | 220 µg/mL
CO[C@H]1CCC[C@H]2C1=C(C(=O)O)N1C(=O)[C@H]([C@@H](C)O)[C@@H]21 |  | MIC | MTT |  | H37Rv |  | 1.6 µM
CC(C)(C)c1cc(C(C)(C)C)c2nc(C(=O)NCC(=O)O)oc2c1 |  | MIC |  |  | My 331/88 |  | 500 µM
O=C(N/N=C/c1ccc(O)cc1)c1cccnc1 |  | MIC |  |  |  |  | 10–1000 µg/mL

Two numbers with a dash give a range or band. MIC bound comes from a single tested concentration. ECn: concentration that inhibits the pathogen or its effect by n%. Rows are shuffled and stem from different studies. Inhibition is in % at the dose shown (toxicity tests: loss of growth or viability). A number after MIC or MFC names an inhibition level or a share of isolates.